Compound potency records, mixed from different reports. Data source: NIAID ChemDB in PubChem.

Common to all: growth or infection tests; agent: Candida albicans

ECn: concentration that inhibits the pathogen or its effect by n%. Neighbouring rows are from separate reports. MIC50, MIC90 and the like: level of inhibition, or share of isolates inhibited.

{"SMILES": "Cc1ccc2nc(N3CCOCC3)c(/C=C(/C#N)c3nc4ccc(C)cc4[nH]3)cc2c1", "read by": "broth dilution", "endpoint": "MIC", "strain": "MTCC 227", "value": "250 µg/mL"}
{"SMILES": "Cn1[se]c2ncccc2c1=O", "endpoint": "MIC", "value": "64 µg/mL"}
{"SMILES": "Cc1sc2c(C)c(Nc3ccccc3Cl)ccc2c1C", "endpoint": "MIC", "strain": "CECT 1394", "value": "50 µg/mL"}
{"SMILES": "CC(C)=CCC/C(C)=C/C=O", "read by": "broth dilution", "endpoint": "MIC50", "strain": "ATCC 90028", "value": "500 µg/mL"}
{"SMILES": "COc1cc(OC)cc(N2C3CCC2CC(c2cnc(N)nc2N)C3)c1", "endpoint": "MIC", "strain": "YEM 12 (WT)", "value": "16 µg/mL"}
{"SMILES": "O=C1C(c2ccc(Cl)cc2)=[N+]([O-])c2cc3c(cc21)OCO3", "endpoint": "MIC", "value": "31.25 µg/mL"}
{"SMILES": "C[C@H]1[C@H](O)[C@@H](C)/C=C/C=C/C=C/C=C/C=C/C=C/C=C/[C@H](O[C@@H]2O[C@H](C)[C@@H](O)[C@H](N)[C@@H]2O)C[C@@H]2O[C@](O)(C[C@@H](O)C[C@@H](O)CC[C@H](O)[C@@H](O)C[C@@H](O)CC(=O)O[C@H]1C)C[C@H](O)[C@H]2C(=O)O", "endpoint": "MIC50", "strain": "183 strains", "value": "0.125 µg/mL"}
{"SMILES": "O=C1Nc2ccccc2C(=O)C1CSc1n[nH]c(=S)s1", "read by": "resazurin", "endpoint": "EC50", "strain": "ATCC 90028", "value": ">50 µg/mL"}
{"SMILES": "C=C1CC[C@H]2C[C@@H]1C2(C)C", "read by": "broth dilution", "endpoint": "MIC50", "strain": "ATCC 90028", "value": "1000 µg/mL"}
{"SMILES": "O=C1C(c2ccc(Cl)cc2)=[N+]([O-])c2ccccc21", "endpoint": "MIC", "value": ">12.5 µg/mL"}
{"SMILES": "O=c1c2ccccc2[se]n1-c1cc(Cl)ccn1", "endpoint": "MIC", "value": ">500 µg/mL"}
{"SMILES": "CCOC(=O)CCNC(=S)Nc1ccc(OC)c(OC)c1", "endpoint": "MIC", "strain": "ATCC2094", "value": "70 µg/mL"}
{"SMILES": "c1ccc(-c2ccc(C(c3ccccc3)n3ccnc3)cc2)cc1", "endpoint": "MFC", "value": ">125 µg/mL"}
{"SMILES": "CSc1nc(Cl)cc(Sc2n[nH]c(=S)s2)n1", "read by": "resazurin", "endpoint": "EC50", "strain": "ATCC 90028", "value": ">50 µg/mL"}
{"SMILES": "C=CC(C)(O)CCC=C(C)C", "read by": "broth dilution", "endpoint": "MIC99.9", "strain": "ATCC 90028", "value": ">8000 µg/mL"}
{"SMILES": "COc1cc(OC)c(OC)cc1C=O", "read by": "broth dilution", "endpoint": "MIC99.9", "strain": "ATCC 90028", "value": "8000 µg/mL"}
{"SMILES": "COc1ccc(CN=C=S)cc1", "read by": "broth dilution", "endpoint": "MFC", "value": "2 µg/mL"}
{"SMILES": "Cc1ccc2nc(N3CCOCC3)c(CC(C#N)c3nc4ccccc4[nH]3)cc2c1", "read by": "broth dilution", "endpoint": "MIC", "strain": "MTCC 227", "value": "100 µg/mL"}
{"SMILES": "COc1cc2oc(=O)ccc2cc1CC(O)C(C)(C)O", "endpoint": "MIC", "value": "250 µg/mL"}
{"SMILES": "O=c1c2cccnc2[se]n1-c1ccccc1", "endpoint": "MIC", "value": ">500 µg/mL"}
{"SMILES": "C[C@@H]1[C@H](O)[C@@H](C)/C=C/C=C/CC/C=C/C=C/C=C/C=C/C(O[C@H]2O[C@H](C)[C@@H](O)[C@H](N)[C@@H]2O)CC2O[C@](O)(CC(O)C(O)CCC(O)CC(O)CC(O)CC(=O)O[C@H]1C)CC(O)C2C(=O)O", "endpoint": "MIC", "strain": "MTCC 227", "value": "100 µg/mL"}
{"SMILES": "CC(=O)CCCNC(=S)Nc1ccc([N+](=O)[O-])cc1", "endpoint": "MIC", "strain": "ATCC2094", "value": "10 µg/mL"}
{"SMILES": "O=C1C(c2ccccc2)=[N+]([O-])c2ccccc21", "endpoint": "MFC", "value": "7.81 µg/mL"}
{"SMILES": "C[C@@H]1[C@H](O)[C@@H](C)/C=C/C=C/C=C/C=C/C=C/C=C/C=C/[C@H](OC2O[C@@H](C)[C@H](O)[C@@H](N)[C@H]2O)C[C@@H]2OC(O)(C[C@@H](O)C[C@@H](O)[C@H](O)CC[C@@H](O)C[C@@H](O)CC(=O)C[C@H]1C)C[C@H](O)[C@H]2C(=O)O", "endpoint": "MIC", "strain": "MTCC 7315", "value": "300 µg/mL"}
{"SMILES": "COc1cccc(CSC#N)c1", "read by": "broth dilution", "endpoint": "MIC", "value": "600 µg/mL"}
{"SMILES": "CCCCCOc1ccc(-c2ccc(-c3ccc(C(=O)N[C@H]4C[C@@H](O)[C@@H](O)NC(=O)[C@@H]5[C@@H](O)[C@@H](C)CN5C(=O)[C@H]([C@H](C)O)NC(=O)[C@H]([C@H](O)[C@@H](O)c5ccc(O)cc5)NC(=O)[C@@H]5C[C@@H](O)CN5C(=O)[C@H]([C@H](C)O)NC4=O)cc3)cc2)cc1", "endpoint": "MIC50", "strain": "183 strains", "value": "0.125 µg/mL"}
{"SMILES": "O=C1C(c2ccc(Cl)cc2)=[N+]([O-])c2cccnc21", "endpoint": "MFC", "value": "15.63 µg/mL"}
{"SMILES": "COc1cc(Cc2cnc(N)nc2N)cc(OC)c1OCCCNc1ccc(S(=O)(=O)c2ccc(N)cc2)cc1", "endpoint": "MIC", "strain": "YEM27 (quadruple deletion)", "value": ">64 µg/mL"}
{"SMILES": "Cc1ccc(C(C)C)cc1", "read by": "broth dilution", "endpoint": "MIC99.9", "strain": "ATCC 90028", "value": "8000 µg/mL"}
{"SMILES": "OC(Cn1cncn1)(Cn1cncn1)c1ccc(F)cc1F", "read by": "broth dilution", "endpoint": "MIC", "strain": "YL 353", "value": ">512 µg/mL"}
{"SMILES": "CCOC(=O)c1cn(CC)c2ccc(C)cc2c1=O", "endpoint": "MIC", "strain": "ATCC 10231", "value": ">100 µg/mL"}
{"SMILES": "Cc1ccc2nc(/C(C#N)=C\\c3cc4ccccc4nc3N3CCOCC3)[nH]c2c1", "read by": "broth dilution", "endpoint": "MIC", "strain": "MTCC 227", "value": ">1000 µg/mL"}
{"SMILES": "O=C1C(c2ccccn2)=[N+]([O-])c2ccccc21", "endpoint": "MFC", "value": "15.63 µg/mL"}
{"SMILES": "CC(C)[C@]12CC(=O)[C@H](C)[C@H]1C2", "read by": "broth dilution", "endpoint": "MIC50", "strain": "ATCC 90028", "value": "8000 µg/mL"}
{"SMILES": "CCCn1[se]c2ncccc2c1=O", "endpoint": "MIC", "value": "512 µg/mL"}
{"SMILES": "C=C(C)C1CC=C(C)C(=O)C1", "read by": "broth dilution", "endpoint": "MIC99.9", "strain": "ATCC 90028", "value": ">8000 µg/mL"}
{"SMILES": "Cc1ccc2nc(N3CCOCC3)c(/C=C(/C#N)c3nc4ccccc4[nH]3)cc2c1", "read by": "broth dilution", "endpoint": "MIC", "strain": "MTCC 227", "value": "500 µg/mL"}
{"SMILES": "COc1cccc(CN=C=S)c1", "read by": "broth dilution", "endpoint": "MIC", "value": "150 µg/mL"}
{"SMILES": "O=c1ccoc2ccc(Sc3n[nH]c(=S)s3)cc12", "read by": "resazurin", "endpoint": "EC50", "strain": "ATCC 90028", "value": ">50 µg/mL"}
{"SMILES": "O=c1c2cccnc2[se]n1-c1ccc(Cl)cc1", "endpoint": "MIC", "value": ">500 µg/mL"}
{"SMILES": "COc1ccc(NC(=S)NCCCC(C)=O)cc1", "endpoint": "MIC", "strain": "ATCC2094", "value": ">128 µg/mL"}
{"SMILES": "COc1ccc(C2=[N+]([O-])c3ccccc3C2=O)cc1", "endpoint": "MFC", "value": ">125 µg/mL"}
{"SMILES": "COc1ccc2c(c1)[nH]c1c(C)c3sc(C)c(C)c3cc12", "endpoint": "MIC", "strain": "CECT 1394", "value": "100 µg/mL"}
{"SMILES": "CCOC(=O)c1cn(CC)c2ccc(Cl)cc2c1=O", "endpoint": "MIC", "strain": "ATCC 10231", "value": ">40 µg/mL"}
{"SMILES": "CCOC(=O)CCNC(=S)Nc1ccc(OC)cc1", "endpoint": "MIC", "strain": "ATCC2094", "value": ">128 µg/mL"}